Anti-infective test results gathered from many reports (values: NIAID ChemDB through PubChem).

Common to all: tests in culture; species: Candida albicans

a–b is a range or a potency band.

structure | strain or isolate | read-out | read by | conditions | value
Cc1ccc(NC(=O)c2ccccc2O)cc1 | ATCC 44859 | MIC | - | - | >250 µM
CC(C)=CCN=C(N)NCCCCCCCN1CCCCCCCCN=C(N)NC1=O | ATCC 60193 | MIC50 | - | - | 40 µM
O=C(Nc1ccc(Cl)cc1)c1ccccc1O | ATCC 44859 | MIC | - | - | 15.63 µM
Cc1cccc2c(=O)n([C@H](C)[C@](O)(Cn3cncn3)c3ccc(F)cc3F)cnc12 | 406 strains | MIC | - | - | 0.07 µg/mL
OC(Cn1cncn1)(Cn1c(-c2ccccc2)nc2ccccc21)c1ccc(F)cc1F | - | MIC | - | - | 6.25–12.5 µg/mL
CCCCC/C=C/CCC(=O)[C@H]1O[C@H]1C(=O)N(CC)CC | G2-sensitive | MIC | - | - | 3.125 µg/mL
COc1ccc(C(C(Cc2ccc(Cl)cc2Cl)c2ccc(Cl)cc2)n2ccnc2)cc1 | 28 strains | MIC50 | - | - | 16 µg/mL
O=C(Nc1ccc(Br)cc1)c1ccccc1O | ATCC 44859 | MIC | - | - | 15.63 µM
C/C=C/CN=C(N)NCCCCCCCN1CCCCCCCCN=C(N)NC1=O | ATCC 60193 | MIC50 | - | - | 2.5 µM
Oc1ccc2c(c1)CCc1ccc(cc1)Oc1cc(ccc1O)CCc1cccc(O)c1-2 | CA2 | MIC80 | broth dilution | - | 16 µg/mL
CC(=O)OCC1C=C(c2ccc(Br)cc2)C(=O)O1 | 9 isolates fluconazole-resistant | MIC50 | - | - | 2 µg/mL
CCC(c1ccc(OC)cc1)C(c1ccc(OC)cc1)n1ccnc1 | 28 strains | MIC90 | - | - | 256 µg/mL
CC[C@@H]([C@H](C)O)n1ncn(-c2ccc(N3CCN(c4ccc(OC[C@@H]5CO[C@@](Cn6cncn6)(c6ccc(F)cc6F)C5)cc4)CC3)cc2)c1=O | 13 isolates fluconazole-resistant | Geometric mean MIC | - | - | 1.45 µg/mL
Clc1cccc(Cl)c1COc1ccc(C(c2ccc3ccccc3c2)n2ccnc2)cc1.O=[N+]([O-])O | 17 strains | Mean MIC | - | - | ≥256 µg/mL
Cc1ccc(/C=C2/SC(=O)NC2=O)cc1 | MTCC 227 | MIC | broth dilution / visual reading | - | 250 µg/mL
C[C@@H](n1cnc2cc(F)c(F)cc2c1=O)[C@](O)(Cn1cncn1)c1ccc(F)cc1F | 60 strains | MIC | - | - | 0.07 µg/mL
COc1ccc(C(Cc2ccc(Cl)cc2)n2ccnc2)cc1 | 28 strains | EC50 | - | - | <256 µg/mL
COc1cc(C(c2nccc3ccccc23)n2ccnc2)cc(OC)c1OC | 44 strains | Mean MIC | - | - | >256 µg/mL
CC(=O)N1CCN(c2ccc(OC[C@H]3CO[C@](Cn4ccnc4)(c4ccc(Cl)cc4Cl)O3)cc2)CC1 | ATCC 10261 | MIC | - | - | 0.06 µg/mL
CCCc1nc2ccccc2n1CC(O)(Cn1cncn1)c1ccc(F)cc1F | - | MIC | - | - | 25–50 µg/mL
O=C1NC(=O)/C(=C\c2ccccc2)S1 | MTCC 227 | MIC | broth dilution / visual reading | - | 500 µg/mL
C[C@H]1[C@H](O)[C@@H](C)/C=C/C=C/C=C/C=C/C=C/C=C/C=C/[C@H](O[C@@H]2O[C@H](C)[C@@H](O)[C@H](N)[C@@H]2O)C[C@@H]2O[C@](O)(C[C@@H](O)C[C@@H](O)CC[C@H](O)[C@@H](O)C[C@@H](O)CC(=O)O[C@H]1C)C[C@H](O)[C@H]2C(=O)O | 25 isolates | MIC50 | - | - | 0.125 µg/mL
CCC(C)n1ncn(-c2ccc(N3CCN(c4ccc(OC[C@H]5CO[C@](Cn6cncn6)(c6ccc(Cl)cc6Cl)O5)cc4)CC3)cc2)c1=O | ATCC 90028 | MIC50 | - | - | 0.0022 µg/mL
O=c1c(N2CCOCC2)c(N2CCN(S(=O)(=O)Cc3ccccc3)CC2)cnn1-c1ccccc1 | C375 | MIC | broth dilution | - | 50 µg/mL
Cc1ccc2c(c1)c1nnc(N3CC[N+](C)([O-])CC3)nc1n2C | 2381E | MIC | - | - | >125 µg/mL
C[C@@H](c1ncncc1F)[C@](O)(Cn1cncn1)c1ccc(F)cc1F | Isolate 2183 | MIC | - | - | 0.06 µg/mL
CCC(C)n1ncn(-c2ccc(N3CCN(c4ccc(OC[C@H]5CO[C@](Cn6cncn6)(c6ccc(Cl)cc6Cl)O5)cc4)CC3)cc2)c1=O | 13 strains (fluconazole-resistant) | MIC50 | - | - | >8 µg/mL
C[C@@H](n1cnc2cc(N)c(F)cc2c1=O)[C@](O)(Cn1cncn1)c1ccc(F)cc1F | 76 strains | MIC | - | - | 5 µg/mL
O=C(/C=C/c1ccc(O)cc1O)c1ccccc1 | SDAU1 | MIC | - | - | 75 µg/mL
CCCCCCCCOc1ccc(-c2ccc(C(=O)NC3CC(NCCN)CNC(=O)[C@@H]4[C@@H](O)[C@@H](C)CN4C(=O)[C@@H](CO)NC(=O)[C@H]([C@H](O)Cc4ccccc4)NC(=O)[C@@H]4C[C@@H](O)CN4C(=O)[C@H]([C@@H](C)O)NC3=O)cc2)cc1 | 5810 | MIC | - | - | 0.5 µg/mL
C=CCc1ccc(O)c(OC)c1 | 3001 | MIC90 | turbidity | - | 490 µg/mL
C[C@@H](n1cnc2cc(S(C)(=O)=O)ccc2c1=O)[C@](O)(Cn1cncn1)c1ccc(F)cc1F | 60 strains | MIC | - | - | 1.25 µg/mL
CCCCCCN(CCCCCC)c1ccc(/C=C2/SC(=O)N(CC(=O)Nc3nc4ccc(SC#N)cc4s3)C2=O)cc1 | MTCC 227 | MIC | broth dilution / visual reading | - | 250 µg/mL
Clc1ccccc1COc1ccc(C(c2ccc3ccccc3c2)n2ccnc2)cc1.O=[N+]([O-])O | 16 strains | Mean MIC | - | - | ≥256 µg/mL
COc1ccc(CC(c2ccc(OC)cc2)n2ccnc2)cc1 | 28 strains | EC50 | - | - | <256 µg/mL
C[C@@H](n1cnc2cc(OCC(F)F)ccc2c1=O)[C@](O)(Cn1cncn1)c1ccc(F)cc1F | 406 strains | MIC | - | - | ≤0.03 µg/mL
COc1ccc(-c2nc3ccccc3n2CC(O)(Cn2cncn2)c2ccc(F)cc2F)cc1 | - | MIC | - | - | 50–100 µg/mL
CCCCC/C=C/CCC(=O)[C@H]1O[C@H]1C(=O)NCc1ccccc1 | G2-sensitive | MIC | - | - | 6.25 µg/mL
NC(N)=NCCCCCCCNCCCCCCCCCNC(N)=NCC1CC1 | ATCC 60193 | MIC50 | - | - | 20 µM
CCC(c1ccc(OC)cc1)C(c1ccc(OC)cc1)n1cncn1 | 28 strains | MIC50 | - | - | 256 µg/mL
O=C(Nc1ccc(Br)cc1)c1ncccc1S | ATCC 44859 | MIC | - | - | >125 µM
N#CSc1ccc2nc(NC(=O)CN3C(=O)S/C(=C/c4ccccc4Cl)C3=O)sc2c1 | MTCC 227 | MIC | broth dilution / visual reading | - | 250 µg/mL
C[C@@H](n1cnc2cc(N3CCN(c4ccc([N+](=O)[O-])cc4)CC3)ccc2c1=O)[C@](O)(Cn1cncn1)c1ccc(F)cc1F | 76 strains | MIC | - | - | 0.63 µg/mL
CCCCCCCCC(=O)[C@H]1O[C@H]1C(=O)N(CC)CC | G2-sensitive | MIC | - | - | 3.125 µg/mL
C[C@@H](n1cnc2cccc(Cl)c2c1=O)[C@](O)(Cn1cncn1)c1ccc(F)cc1F | 76 strains | MIC | - | - | 10 µg/mL
COc1ccc2c(Cc3ccc(C(C)(C)C)cc3)c3[n+](cc2c1OC)CCc1cc2c(cc1-3)OCO2 | ATCC64124 | MIC | - | - | 3.13 µg/mL
COc1ccc(C(Cc2ccc(Cl)cc2)n2cnnc2)cc1 | 28 strains | MIC90 | - | - | 256 µg/mL
O=C(Nc1ccc([N+](=O)[O-])cc1)c1ncccc1O | ATCC 44859 | MIC | - | - | >250 µM
Cc1c(O)cccc1C(=O)N[C@@H](CSc1ccccc1)[C@H](O)CN1C[C@H]2CCCC[C@H]2C[C@H]1C(=O)NC(C)(C)C | I157D | MIC | - | - | >64 µg/mL
C[C@@H](n1cnc2cc(N3CCN(C)CC3)ccc2c1=O)[C@](O)(Cn1cncn1)c1ccc(F)cc1F | 60 strains | MIC | - | - | 1.25 µg/mL
Fc1ccc(CCCCn2c3c(c4cc(F)ccc42)CNCC3)cc1 | ATCC 90028 | MIC | - | - | 0.5 µg/mL
Clc1ccc(COc2ccc(C(c3nccc4ccccc34)n3ccnc3)cc2)c(Cl)c1 | 17 strains | MIC90 | - | - | ≥256 µg/mL
Cc1ccc(NC(=O)c2ncccc2S)cc1 | ATCC 44859 | MIC | - | - | 7.81 µM
NC(N)=NCCCCCCCCCNCCCCCCCN=C(N)N | 53T | MIC50 | - | - | 40 µM
C[C@@H](c1ncncc1F)[C@](O)(Cn1cncn1)c1ccc(F)cc1F | 660 isolates | MIC50 | - | - | 0.015 µg/mL
OC(Cn1cncn1)(Cn1cnc2ccc(C(F)(F)F)cc21)c1ccc(F)cc1F | - | MIC | - | - | 50–100 µg/mL
C[C@@H](c1ncncc1F)[C@](O)(Cn1cncn1)c1ccc(F)cc1F | OY-2-76 (FLU-S) | MIC | - | - | 8 µg/mL
O=C1NC(=O)/C(=C\c2ccccc2-c2ccco2)S1 | MTCC 227 | MIC | broth dilution / visual reading | - | 500 µg/mL
C#CCNC(N)=NCCCCCCCN1CCCCCCCCN=C(N)NC1=O | 53T | MIC50 | - | - | 5 µM
CC(C)S(=O)(=O)N1CCN(c2cnn(-c3cc(F)cc(F)c3)c(=O)c2OC2CCC(F)C2)CC1 | CLY16997 | MIC | broth dilution | - | 0.03 µg/mL
C[C@@H](c1ncncc1F)[C@](O)(Cn1cncn1)c1ccc(F)cc1F | Isolate M27-T-micro | MIC50 | - | 48 h | 0.09 µg/mL
CC(=O)N1CCN(c2ccc(OC[C@H]3CO[C@](Cn4ccnc4)(c4ccc(Cl)cc4Cl)O3)cc2)CC1 | 1208E | MIC | - | - | 0.001 µg/mL
C[C@H](n1cnc2cc3ccccc3cc2c1=O)[C@](O)(Cn1cncn1)c1ccc(F)cc1F | 60 strains | MIC | - | - | ≤0.03 µg/mL
Cc1ccc(O)c(C(=O)/C=C/c2ccc(O)cc2O)c1 | ATCC 18804 | MIC | - | - | 75 µg/mL
Clc1ccc(COc2ccc(C(c3ccc4ccccc4c3)n3ccnc3)cc2)cc1.O=[N+]([O-])O | 17 strains | Mean MIC | - | - | ≥256 µg/mL

Repeating the final 9 entries:

structure,strain or isolate,read-out,read by,conditions,value
C[C@@H](c1ncncc1F)[C@](O)(Cn1cncn1)c1ccc(F)cc1F,OY-2-76 (FLU-S),MIC,-,-,8 µg/mL
O=C1NC(=O)/C(=C\c2ccccc2-c2ccco2)S1,MTCC 227,MIC,broth dilution / visual reading,-,500 µg/mL
C#CCNC(N)=NCCCCCCCN1CCCCCCCCN=C(N)NC1=O,53T,MIC50,-,-,5 µM
CC(C)S(=O)(=O)N1CCN(c2cnn(-c3cc(F)cc(F)c3)c(=O)c2OC2CCC(F)C2)CC1,CLY16997,MIC,broth dilution,-,0.03 µg/mL
C[C@@H](c1ncncc1F)[C@](O)(Cn1cncn1)c1ccc(F)cc1F,Isolate M27-T-micro,MIC50,-,48 h,0.09 µg/mL
CC(=O)N1CCN(c2ccc(OC[C@H]3CO[C@](Cn4ccnc4)(c4ccc(Cl)cc4Cl)O3)cc2)CC1,1208E,MIC,-,-,0.001 µg/mL
C[C@H](n1cnc2cc3ccccc3cc2c1=O)[C@](O)(Cn1cncn1)c1ccc(F)cc1F,60 strains,MIC,-,-,≤0.03 µg/mL
Cc1ccc(O)c(C(=O)/C=C/c2ccc(O)cc2O)c1,ATCC 18804,MIC,-,-,75 µg/mL
Clc1ccc(COc2ccc(C(c3ccc4ccccc4c3)n3ccnc3)cc2)cc1.O=[N+]([O-])O,17 strains,Mean MIC,-,-,≥256 µg/mL

MIC50, MIC90 and the like: level of inhibition, or share of isolates inhibited. Neighbouring rows are from separate reports. ECn: concentration that inhibits the pathogen or its effect by n%. Blank or dashed fields: not listed here.